One may read the stoichiometry N as the number of molecules, sites or subunits per partner or assembly.

Our source for the stoichiometry N and K half values is PMC4658428 (Frontiers in Microbiology, 2015).

Data set [1] concerns the target LdtR E33A (Liberibacter asiaticus).
The target in data set [2] is LdtR F64A (Liberibacter asiaticus).
Data set [3] concerns the target LdtR L61A (Liberibacter asiaticus).
Data set [4] concerns the target LdtR N65A (Liberibacter asiaticus).
Data set [5] addresses LdtR R30A (Liberibacter asiaticus).
Data set [6] deals with LdtR R34A (Liberibacter asiaticus).
Data set [7] concerns the target LdtR R37A (Liberibacter asiaticus).
The target in data set [8] is LdtR T43A (Liberibacter asiaticus).
Data set [9] concerns the target LdtR V26A (Liberibacter asiaticus).
Data set [10] concerns the target LdtR Y81A (Liberibacter asiaticus).
Data set [11] has as its target LdtR Y82A (Liberibacter asiaticus).
Data set [12] addresses LdtR Y131A (Liberibacter asiaticus).
The test system of data set [13] is LdtR N65A (Liberibacter asiaticus). Put plainly: EMSA. (Mobility shift assays separate free from complexed probe on a gel.)
Data set [14] has as its system LdtR R30A (Liberibacter asiaticus). Put plainly: EMSA.
Data set [15] deals with LdtR F64A (Liberibacter asiaticus). Put plainly: EMSA.
In data set [16] the test system is LdtR L61A (Liberibacter asiaticus). Put plainly: EMSA.
Data set [17] relates to LdtR T43A (Liberibacter asiaticus). Put plainly: EMSA.
Data set [18] deals with LdtR Y131A (Liberibacter asiaticus). Put plainly: EMSA.

As to LdtR E33A, the stoichiometry N in [1] was 2.

As to LdtR F64A, the stoichiometry N in [2] amounted to 2.

For the substance LdtR L61A, the stoichiometry N in data set [3] stood at 2.

Consider LdtR N65A, for which, in [4], the stoichiometry N came to 2.

Regarding LdtR R30A, in data set [5], the stoichiometry N was determined as 2.

Regarding LdtR R34A, in data set [6], the stoichiometry N stood at 2.

In data set [7], LdtR R37A yielded a stoichiometry N of 2.

In the case of LdtR T43A, in data set [8], the stoichiometry N came to 2.

In the case of LdtR V26A, the stoichiometry N in data set [9] was found to be 2.

In the case of LdtR Y81A, the stoichiometry N in data set [10] is 2.

Regarding LdtR Y82A, in [11], the stoichiometry N was 2.

Turning to LdtR Y131A, the stoichiometry N in data set [12] was 2.

With PldtP, the K half in data set [13], in data set [14], in data set [15], in data set [16], in [17] and in [18] was 400 nM throughout.
